Mutational interference map of HIV-1 RNA dimerization

Reference: Ye et al. 2022, doi:10.1038/s41594-022-00746-2.

The 5' region of HIV-1 NL4-3 RNA (positions 1-437):
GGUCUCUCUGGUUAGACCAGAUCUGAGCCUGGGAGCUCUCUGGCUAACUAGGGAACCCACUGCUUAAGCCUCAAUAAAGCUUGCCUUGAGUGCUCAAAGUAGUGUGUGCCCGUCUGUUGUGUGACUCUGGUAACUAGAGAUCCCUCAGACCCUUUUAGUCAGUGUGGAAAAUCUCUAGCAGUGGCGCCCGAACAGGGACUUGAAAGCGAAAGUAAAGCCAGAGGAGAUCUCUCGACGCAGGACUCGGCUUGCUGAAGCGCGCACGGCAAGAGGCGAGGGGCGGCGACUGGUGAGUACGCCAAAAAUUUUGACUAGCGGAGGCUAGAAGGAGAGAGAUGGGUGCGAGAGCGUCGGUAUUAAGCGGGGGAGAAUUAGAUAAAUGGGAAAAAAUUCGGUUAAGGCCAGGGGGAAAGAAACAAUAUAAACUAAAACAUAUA

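Randomly mutated transcripts starting with one, two or three G (1G, 2G, 3G), capped or uncapped, were folded for 30 min at 37 °C. Monomer and dimer bands were cut from native gels after folding in high salt (300 mM KCl, 5 mM MgCl2) or low salt (40 mM KCl, 0.1 mM MgCl2). Kdimer compares mutation frequencies in monomer and dimer, corrected for sequencing errors.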

Scale: median log2 Kdimer over the changes at a position; positive = changes inhibit dimerization, negative = changes enhance it.
One numbering serves 1G, 2G and 3G.
A position is written with its base.

* A311 -> 1G capped low-salt 0.93; 2G capped high-salt 0.61; 2G uncapped high-salt 0.71
* C312 -> 1G capped low-salt 0.14; 2G capped high-salt 0.29; 2G uncapped high-salt 0.41
* U313 -> 1G capped low-salt 1.23; 2G capped high-salt 1.14; 2G uncapped high-salt 1.26
* A314 -> 1G capped low-salt -0.21; 2G capped high-salt 0.37; 2G uncapped high-salt 0.48
* G315 -> 1G capped low-salt 0.34; 2G capped high-salt 0.33; 2G uncapped high-salt 0.43
* C316 -> 1G capped low-salt 0.32; 2G capped high-salt 0.05; 2G uncapped high-salt 0.05
* G317 -> 1G capped low-salt 0.19; 2G capped high-salt 0.06; 2G uncapped high-salt 0.13
* G318 -> 1G capped low-salt -0.12; 2G capped high-salt 0.04; 2G uncapped high-salt 0.07
* A319 -> 1G capped low-salt 0.12; 2G capped high-salt 0.17; 2G uncapped high-salt 0.21
* G320 -> 1G capped low-salt -0.19; 2G capped high-salt -0.13; 2G uncapped high-salt -0.07
* G321 -> 1G capped low-salt 0.67; 2G capped high-salt 0.63; 2G uncapped high-salt 0.68
* C322 -> 1G capped low-salt 0.48; 2G capped high-salt 0.22; 2G uncapped high-salt 0.49
* U323 -> 1G capped low-salt 0.78; 2G capped high-salt 0.50; 2G uncapped high-salt 0.95
* A324 -> 1G capped low-salt 0.67; 2G capped high-salt 0.42; 2G uncapped high-salt 0.89
* G325 -> 1G capped low-salt 0.55; 2G capped high-salt 0.32; 2G uncapped high-salt 0.57
* A326 -> 1G capped low-salt -0.04; 2G capped high-salt -0.15; 2G uncapped high-salt 0.00
* A327 -> 1G capped low-salt 0.41; 2G capped high-salt 0.09; 2G uncapped high-salt 0.12
* G328 -> 1G capped low-salt -0.07; 2G capped high-salt -0.02; 2G uncapped high-salt 0.01
* G329 -> 1G capped low-salt 0.03; 2G capped high-salt 0.08; 2G uncapped high-salt 0.25
* A330 -> 1G capped low-salt 0.37; 2G capped high-salt 0.15; 2G uncapped high-salt 0.17
* G331 -> 1G capped low-salt -0.11; 2G capped high-salt 0.04; 2G uncapped high-salt 0.06
* A332 -> 1G capped low-salt 0.34; 2G capped high-salt -0.03; 2G uncapped high-salt 0.10
* G333 -> 1G capped low-salt -0.30; 2G capped high-salt 0.14; 2G uncapped high-salt 0.06
* A334 -> 1G capped low-salt 0.23; 2G capped high-salt -0.01; 2G uncapped high-salt 0.08
* G335 -> 1G capped low-salt 0.43; 2G capped high-salt -0.09; 2G uncapped high-salt -0.06
* A336 -> 1G capped low-salt 0.53; 2G capped high-salt -0.08; 2G uncapped high-salt -0.09
* U337 -> 1G capped low-salt -0.15; 2G capped high-salt 0.05; 2G uncapped high-salt 0.09
* G338 -> 1G capped low-salt 0.03; 2G capped high-salt 0.03; 2G uncapped high-salt -0.15
* G339 -> 1G capped low-salt 0.56; 2G capped high-salt 0.08; 2G uncapped high-salt 0.13
* G340 -> 1G capped low-salt -0.24; 2G capped high-salt -0.15; 2G uncapped high-salt -0.09
* U341 -> 1G capped low-salt 0.05; 2G capped high-salt -0.05; 2G uncapped high-salt 0.08

The first 3 entries again:

A311 read 1G capped low-salt 0.93; 2G capped high-salt 0.61; 2G uncapped high-salt 0.71.
C312 read 1G capped low-salt 0.14; 2G capped high-salt 0.29; 2G uncapped high-salt 0.41.
U313 read 1G capped low-salt 1.23; 2G capped high-salt 1.14; 2G uncapped high-salt 1.26.